{
  "source": "paper PMC6541436",
  "about": "“Misfolded GPI-anchored proteins are escorted through the secretory pathway by ER-derived factors” (2019)",
  "biological_target": "GFP-tagged PrP* (C179A mutant of hamster PrP) (hamster) (UniProt Q60506)",
  "assay": "co-IP",
  "data": [
    {"substance": "Calnexin (from UniProt P27824 21-592) (natural protein)", "values": [
      {"measurement": "percent of cellular molecules engaged with PrP* on the surface", "value": 0.5, "unit": "%"},
      {"measurement": "percent of total CNX recovered with surface GFP-PrP*", "value": 0.1, "unit": "%"}
    ]}
  ]
}
